Values are the deposited “Percent Effect”, in %. The record does not define 0% and 100%; most values in the screen are far below 50% and negative numbers occur (in some assays of this library far below -100). Many other results are left out here, so strong results are more common than in the screen.

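Growth of Mycobacterium tuberculosis over 3 days (7H9 medium with glucose and tyloxapol); the read-out is not stated. Compounds at 500 µM. The record gives no direction; compounds that gave an IC50 in retests scored well above the rest, so higher reads as more growth inhibition. Of about 18,000 compounds tested this way, about 1,400 (7.9%) reached 50% or more in at least one test.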

| # | compound | Percent Effect |
|---|---|---|
| 1 | `CCN(CC)C(=O)NCCCOC(C)C` | 32.3% |
| 2 | `CN1CCN(Cc2ccc(N(C)C)nc2)CCC1=O` | -14.37% |
| 3 | `Cc1ncsc1CCN` | 10.65% |
| 4 | `Cc1ncsc1CCCNC(=O)c1cn[nH]c1` | 12.49% |
| 5 | `O=C(N[C@@H]1CCCNC1)c1nc2ccccn2c1F` | 8.732% |
| 6 | `Cc1ccc(C(=O)NC2CC(C)(C)NC(C)(C)C2)cn1` | 3.153% |
| 7 | `CN(C(=O)CCc1ccnn1C)C1CCNCC1` | -7.471% |
| 8 | `O=C(CSc1nnnn1Cc1cccs1)NC1CC1` | 67.1% |
| 9 | `NC[C@@H]1CCO[C@H]1c1ccc(F)cc1` | 18.15% |
| 10 | `OCC1(O)CCc2ccccc21` (centres unmarked) | 16.12% |
| 11 | `CCC1(CO)CCCN(CCn2cc(Cl)cn2)C1` (centres unmarked) | 58.07% |
| 12 | `O=C(c1cccnc1)N1CCCC1c1ccc(O)cc1` (centres unmarked) | 11.67% |
| 13 | `C[C@H](NC(=O)CSCc1ccccc1Cl)C(N)=O` | 18.76% |
| 14 | `CC(=O)Nc1ccc(C(=O)CSc2nnc[nH]2)cc1` | 40.16% |
| 15 | `CCN1CCCN(C(=O)c2cc(C3CC3)on2)CC1=O` | 19.62% |
| 16 | `Cc1cc(N2CCCC(N)C2)nc(C)n1` (centres unmarked) | 6.363% |
| 17 | `NCCCNS(=O)(=O)CCc1ccccc1` | 5.239% |
| 18 | `O=C(NCCc1noc(C2CCC2)n1)C1CCCO1` (centres unmarked) | 45.3% |
| 19 | `O=C(Cc1c[nH]c2ccccc12)N[C@@H]1CCOC[C@H]1O` | -4.901% |
| 20 | `Nc1cc(-c2cccnc2)on1` | 88.65% |
| 21 | `COc1ccnc(NCc2ccc3c(c2)OCCO3)n1` | 14.74% |
| 22 | `CC(C)N1CC(NC(=O)c2ccc3ccccc3n2)C1` | 17.18% |
| 23 | `CS(=O)(=O)NCC1CCCN(c2ncc(Cl)cc2F)C1` (centres unmarked) | 75.38% |
| 24 | `CN(Cc1ccco1)C(=O)CN1CCCCC1` | 0.132% |
| 25 | `CC(C(=O)N1CCOCC1)S(=O)(=O)c1ccccn1` (centres unmarked) | 7.316% |
| 26 | `CCCNCc1cc(OC)c(OCC(N)=O)cc1Br` | 4.994% |
| 27 | `COc1ncc(C)cc1NC(=O)c1ccc(C)[nH]c1=O` | -11.35% |
| 28 | `Cc1cc(C(=O)NC(C)(CO)CO)nc2ccccc12` | -0.04366% |
| 29 | `CS(=O)(=O)NCc1nc(CCc2ccccc2)no1` | 44.17% |
| 30 | `CCN(CC)C(=O)CCC(=O)NCc1c[nH]nc1C` | -2.302% |
| 31 | `Cc1cccc(C)c1NC(=O)CCCS(C)(=O)=O` | 7.251% |
| 32 | `CC[C@H](CO)Nc1ccnc2cc(Br)cnc12` | -6.916% |
| 33 | `CCC(C(=O)N1CCC(O)CC1)c1ccccc1` (centres unmarked) | 17.06% |
| 34 | `COc1ccccc1C(O)CN` (centres unmarked) | 24.49% |
| 35 | `CSc1cc(NC(=O)NCCc2ccccn2)ccn1` | 65.49% |
| 36 | `CNCc1ncnn1C` | -2.241% |
| 37 | `CC(C)NC(=O)c1cccc(CN)c1` | 11.86% |
| 38 | `CC(C)(C)NCCNC(=O)CCc1ccccn1` | -10.78% |
| 39 | `Cc1ccnc(NC(=O)CC(C)C)n1` | -5.522% |
| 40 | `CCCS(=O)(=O)NCCN1CCC(CO)CC1` | 5.51% |
| 41 | `COCC(=O)N(C)C1CCCCC1` | -2.305% |
| 42 | `COc1c[nH]c(C(=O)NCCSC(F)(F)F)cc1=O` | 2.854% |
| 43 | `NCC(=O)N1CCCC(CCc2ccc(F)cc2F)C1` (centres unmarked) | 92.21% |
| 44 | `CC(C)NC(=O)NCC12CCCC=C1NC(=O)CC2` (centres unmarked) | -7.496% |
| 45 | `CCC(C)(CC)NC(=O)NC(C)CS(=O)(=O)CC` (centres unmarked) | 1.819% |
| 46 | `CNCc1cccc(-n2cccn2)c1` | -9.474% |
| 47 | `NCc1cc(Oc2ccc(Cl)cc2)ccn1` | -2.565% |
| 48 | `COc1ccc2cc(CN)ccc2c1` | 29.56% |
| 49 | `CC(Oc1ccccc1)C(=O)NC1CCN(C)CC1` (centres unmarked) | 11.68% |

Some entries from above, unchanged:

{"compound": "Cc1ccc(C(=O)NC2CC(C)(C)NC(C)(C)C2)cn1", "Percent Effect": 3.153}
{"compound": "CC[C@H](CO)Nc1ccnc2cc(Br)cnc12", "Percent Effect": -6.916}
{"compound": "COCC(=O)N(C)C1CCCCC1", "Percent Effect": -2.305}
{"compound": "O=C(c1cccnc1)N1CCCC1c1ccc(O)cc1", "stereo": "centres unmarked", "Percent Effect": 11.67}
{"compound": "CN(Cc1ccco1)C(=O)CN1CCCCC1", "Percent Effect": 0.132}

The values are deposited in ChEMBL (CHEMBL3988442, “University of Dundee, Small-Polar-MMV Screening Library” (2021)).